Measured values from several laboratories, pooled; numbers as filed in NIAID ChemDB.

All rows: growth or infection tests; agent: HIV-1; method: ELISA; endpoint: EC50

Neighbouring rows are from separate reports.

SMILES | cells | strain or isolate | conditions | value
CCCCCCOC(=O)[C@H](C)NP(=O)(OC[C@H]1O[C@@H](n2cc(C)c(=O)[nH]c2=O)C[C@@H]1N=[N+]=[N-])OCC(Cl)(Cl)Cl | C8166 | RF |  | 0.5 µM
COC(=O)[C@H](C)NP(=O)(OC[C@H]1O[C@@H](n2cc(C)c(=O)[nH]c2=O)C[C@@H]1N=[N+]=[N-])OCC(Cl)(Cl)Cl | C8166 | RF |  | 0.09 µM
CCOC(=O)c1cc(C(=O)c2ccc([N+](=O)[O-])cc2)n2ccc(C(=O)NCc3ccccn3)cc12 | H9 | NL4-3 |  | 20.5 µM
Cc1cn([C@H]2C[C@H](N=[N+]=[N-])[C@@H](COP(=O)(N[C@@H](C)C(=O)OCc3ccccc3)Oc3ccccc3)O2)c(=O)[nH]c1=O | C8166 | RF |  | 0.3 µM
COC(=O)[C@H](C)NP(=O)(N[C@@H](C)C(=O)OC)OC[C@H]1O[C@@H](n2cc(C)c(=O)[nH]c2=O)C[C@@H]1N=[N+]=[N-] | C8166 | RF |  | 2 µM
Cc1cc(OCCCOc2ccc(-c3cccc(-c4nn[nH]n4)c3)cc2)cnc1CS(=O)c1nc2ccccc2[nH]1 | HEK293T | Clinical isolates |  | 2 µM
CCOC(=O)c1cc(C(=O)c2ccccc2)n2ccc(C(=O)NCc3ccc4ccccc4c3)cc12 | H9 | NL4-3 |  | 20.1 µM
COCCCOc1cnc(CS(=O)c2nc3ccccc3[nH]2)c(C)c1 | HEK293T | Clinical isolates |  | 15 µM
COc1ccc2ccc3c(c2c1)OC1(CCN(Cc2ccc(C#N)cc2)CC1)NC3=O | OM-10.1 |  |  | 1.4 µM
COC(=O)c1ccc(OCCCOc2cnc(CS(=O)c3nc4ccccc4[nH]3)c(C)c2)cc1OC | HEK293T | Clinical isolates |  | 4 µM
CC1(C)Oc2cc(O)c3c(=O)cc(-c4ccc(O)cc4)oc3c2C(O)C1O | C8166 | IIIB |  | 8.6 µM
Cc1cn([C@H]2C[C@H](N=[N+]=[N-])[C@@H](COP(=O)(N[C@@H](C)C(=O)OC(C)(C)C)OCC(Cl)(Cl)Cl)O2)c(=O)[nH]c1=O | C8166 | RF |  | 20 µM
N=C1Sc2ccccc2C2=NCCCN12 | PBMC | 98IN022 |  | 0.4 µM
CCOC(=O)c1cc(C(=O)c2ccc(C(F)(F)F)cc2)n2ccc(C(=O)NCc3ccccn3)cc12 | H9 | NL4-3 |  | 20.5 µM
COC(=O)[C@H](Cc1ccccc1)NP(=O)(N[C@@H](Cc1ccccc1)C(=O)OC)OC[C@H]1O[C@@H](n2cc(C)c(=O)[nH]c2=O)C[C@@H]1N=[N+]=[N-] | C8166 | RF |  | 0.07 µM
O=c1ccc2ccc3c(c2o1)CCO3 | C8166 | IIIB |  | 336.3 µM
CCOC(=O)c1cc(C(=O)c2ccc(N)cc2)n2ccc(C(=O)NCc3ccccn3)cc12 | H9 | NL4-3 |  | 108.7 µM
C=CC(C)(C)C1C2=C(C=CC(C)(C)O2)C(OC)=C2C=CC(=O)OC21 | C8166 | IIIB |  | 9.5 µM
CC(C)(C)[Si](OC[C@H]1OC(N2C(=O)NC(=O)/C2=C/c2ccccc2)C[C@@H]1N=[N+]=[N-])(c1ccccc1)c1ccccc1 | MT-4 | IIIB |  | >10 µM
CCOP(=O)(N[C@@H](C)C(=O)OC)OC[C@H]1O[C@@H](n2cc(C)c(=O)[nH]c2=O)C[C@@H]1N=[N+]=[N-] | C8166 | RF |  | 3 µM
Cc1cc(=O)c2c(O)c3c(O)cc(O)c4c5c(O)cc(O)c6c(O)c7c(=O)cc(C)c8c1c2c(c34)c(c65)c78 | CEM |  | 7 d | <0.25 µg/mL
C/C=C1\C(=O)NC(=O)N1[C@H]1C[C@H](N=[N+]=[N-])[C@@H](CO)O1 | MT-4 | IIIB |  | >100 µM
CC(C)=CCOc1cc(O)c2ccc(=O)oc2c1 | C8166 | IIIB |  | 18.3 µM
CCOC(=O)c1cc(C(=O)c2ccccc2)n2ccc(C(=O)N[C@@H](Cc3c[nH]c4ccccc34)C(=O)OC)cc12 | H9 | NL4-3 |  | 103.2 µM
Cc1cc(OCc2ccc(-c3cccc(C#N)c3)cc2)cnc1CS(=O)c1nc2ccccc2[nH]1 | HEK293T | Clinical isolates |  | 2 µM
CCOC(=O)c1cc(C(=O)c2ccccc2)n2ccc(C(=O)N[C@H](C)c3ccccc3)cc12 | H9 | NL4-3 |  | 41 µM
Cc1cc(COc2ccc(-c3cccc(C(=O)O)c3)cc2)cnc1CS(=O)c1nc2ccccc2[nH]1 | HEK293T | Clinical isolates |  | 3 µM
C=CC(C)(C)c1cc2ccc(O)c(OC)c2oc1=O | C8166 | IIIB |  | 10.7 µM
Cc1cc(COc2ccc(-c3cccc(C#N)c3)cc2)cnc1CS(=O)c1nc2ccccc2[nH]1 | HEK293T | Clinical isolates |  | 1 µM
CCOC(=O)c1cc(C(=O)c2ccco2)n2ccc(C(=O)NCc3ccccn3)cc12 | H9 | NL4-3 |  | 48.7 µM

A second listing of 2 rows from above:

{"SMILES": "C/C=C1\\C(=O)NC(=O)N1[C@H]1C[C@H](N=[N+]=[N-])[C@@H](CO)O1", "cells": "MT-4", "strain or isolate": "IIIB", "value": ">100 µM"}
{"SMILES": "CCOC(=O)c1cc(C(=O)c2ccc([N+](=O)[O-])cc2)n2ccc(C(=O)NCc3ccccn3)cc12", "cells": "H9", "strain or isolate": "NL4-3", "value": "20.5 µM"}

ECn: concentration that inhibits the pathogen or its effect by n%. An empty or dashed field is not shown.